For one compound, IC50 results are on record in patent US9132129B2, “Antiviral compounds” (KATHOLIEKE UNIVERSITEIT LEUVEN, priority 2010, dated 2015).

The target of assay [1] is His6-tagged HIV-1 integrase / flag-LEDGF/p75 interaction (Human immunodeficiency virus type 1 group M subtype B (isolate NY5) (HIV-1), UniProt P12497). Nature of the assay: Alpha Screen interaction assay (LEDGF-integrase interaction). The note with it: His6-tagged integrase 300 nM, flag-LEDGF/p75 100 nM; read-out: Alphascreen IC50. The format is binding. A general note: Alpha assays give light when donor and acceptor beads are brought close together.

In assay [2] the target is His6-tagged integrase / MBP-fused Δ325 integrase binding domain of LEDGF (Human immunodeficiency virus type 1 group M subtype B (isolate NY5) (HIV-1), UniProt P12497). Nature of the assay: HTRF interaction assay (LEDGF-integrase interaction). Particulars: His6-tagged integrase 78 nM. On the procedure:
Afterwards 8.3 nM of europium cryptate conjugated anti-MBP monoclonal antibody and 17 nM anti-His antibody conjugated with the acceptor fluorophore d2.
A general note: In TR-FRET formats the signal depends on donor and acceptor labels being close together.

In the case of `CCCC(C(=O)O)c1c(C)nc2cc3c(cc2c1-c1ccc(C)cc1)CCC3` (centres unmarked) [Cpd012, 2-(2-methyl-4-p-tolyl-7,8-dihydro-6H-cyclopenta[g]quinolin-3-yl)pentanoic acid], the values for the IC50 in assay [1] and in assay [2] were 1080 nM and 4400 nM, respectively.

The IC50 is the point on the concentration scale where inhibition reaches its midpoint.
